Here are results for one substance from paper PMC8706149 (International Journal of Molecular Sciences, 2021).

Data set [1] concerns SDS micelles. In words: Steady-state fluorescence in the presence of SDS micelles. Format: binding. The conditions noted are these: 25 mM SDS in 10 mM NaP pH 7.4, peptide 2 µM, 25 °C.
Data set [2] can be described thus: Steady-state fluorescence in buffer and water/organic solvent mixtures. It counts as physicochemical. The conditions noted are these: 25 °C.
Data set [3] has as its system POPC/POPG liposomes. In words: Steady-state fluorescence in the presence of POPC/POPG liposomes. It counts as binding. The conditions noted are these: POPC/POPG 4:1 LUVs.
A short description of data set [4]: Quantum-yield determination. It counts as physicochemical.
Data set [5] concerns POPC liposomes. In words: Steady-state fluorescence in the presence of POPC liposomes. It counts as binding. The conditions noted are these: POPC LUVs.
The mark [6] stands for this setting: lipid-to-peptide ratio 200, 10 mM NaP pH 7.4.
[7] abbreviates: emission maximum, lipid-to-peptide ratio 200, 10 mM NaP pH 7.4, peptide 2.2–[…].

With “1-[2-(maleimido)ethyl]-4-[5-(4-methoxyphenyl)-2-oxazolyl]pyridinium-labeled GKY20 [PyMPO-(C)GKY20]”, the “Blue-shift with respect to the λmax in NaP, SDS (25 mM)” value in data set [1] amounted to 7 nm. Further, in data set [1] (emission maximum), the “λmax (nm) SDS (25 mM)” value was found to be 556 nm. Further, in data set [2] (NaP:isopropanol 50% v:v, peptide 2 µM), the “Blue-shift with respect to the λmax in NaP, IPA 50%” value is 5 nm. In data set [2] (NaP:methanol 50% v:v, peptide 2 µM), the “Blue-shift with respect to the λmax in NaP, MeOH 50%” value amounted to 0 nm. The “λmax (nm) NaP pH 7.4” value in data set [2] (emission maximum, 10 mM sodium phosphate pH 7.4, peptide 2 µM, ex. 330 nm (Luc, mLuc), 363 nm (aLuc), 408 nm (PyMPO)) amounted to 563 nm. Moreover, the “λmax (nm) IPA 50%” value in data set [2] (emission maximum, NaP:isopropanol 50% v:v, peptide 2 µM) is listed as 558 nm. In addition, the “λmax (nm) MeOH 50%” value in data set [2] (emission maximum, NaP:methanol 50% v:v, peptide 2 µM) came to 563 nm. The “Blue-shift with respect to the λmax in NaP, POPC + POPG” value in data set [3] (setting [6]) came out at 28 nm. Moreover, the “λmax (nm) POPC + POPG” value in data set [3] (setting [7]) is 535 nm. Further, in data set [4] (ratio QY in isopropanol:NaP (1:1) / QY in NaP pH 7.4), the “QY variation relative to NaP pH 7.4, IPA 50%” value is reported as 4.66. For the same substance, in data set [4] (relative quantum yield, 10 mM phosphate pH 7.4, standard fluorescein (coumarin-6 for mLuc), errors ≤ 5%), the “QY NaP pH 7.4” value is listed as 0.080. Besides, in data set [4] (relative quantum yield, isopropanol:NaP pH 7.4 (1:1, v/v), errors ≤ 5%), the “QY IPA 50%” value stood at 0.373. Moreover, the “Blue-shift with respect to the λmax in NaP, POPC” value in data set [5] (setting [6]) is 22 nm. In addition, the “λmax (nm) POPC” value in data set [5] (setting [7]) is reported as 541 nm.
